Data reported in patent US20220313717A1, “METHODS OF TREATING CRYPTOCOCCUS INFECTIONS” (MATINAS BIOPHARMA NANOTECHNOLOGIES, INC., priority 2019, published 2022).

Assay: Participant subjective impressions of cAMB versus prior IV AMB (qualitative scale, visual analog)
Design: species or system human

C[C@@H]1[C@H](O)[C@@H](C)/C=C/C=C/C=C/C=C/C=C/C=C/C=C/[C@H](O[C@@H]2O[C@H](C)[C@@H](O)[C@H](N)[C@@H]2O)C[C@@H]2O[C@](O)(C[C@@H](O)C[C@@H](O)[C@H](O)CC[C@@H](O)C[C@@H](O)CC(=O)O[C@H]1C)C[C@H](O)[C@H]2C(=O)O [IV AMB, amphotericin B]
participants willing to receive IV AMB again versus an alternative therapy (Phase 1A pre-participation survey (10/25)): 40% | participants who thought the therapy very convenient (Phase 1A, cAMB 25/27, IV AMB 15/23 respondents): 65%
